Columns and labels:
[1] = Drug concentrations in human colorectal tissue explants (LC-MS/MS); format: in vitro ADME; conditions: for AUC3h-15d / Cmax: Human colorectal explants, 3 h exposure
[2] = Drug concentrations in Rhesus macaque colorectal tissue explants (LC-MS/MS); format: in vitro ADME, Rhesus macaque (Macaca mulatta); conditions: Rh. macaque colorectal explants, 3 h exposure
[3] = Drug concentrations in Rhesus macaque ecto-cervical tissue explants (LC-MS/MS); format: in vitro ADME, Rhesus macaque (Macaca mulatta); conditions: Rh. macaque ecto-cervical explants, 3 h exposure
[4] = Drug concentrations in Rhesus macaque vaginal tissue explants (LC-MS/MS); format: in vitro ADME, Rhesus macaque (Macaca mulatta); conditions: for AUC3h–15d / Cmax: Rh. macaque vaginal explants, 3 h exposure
[5] = Drug concentrations in human ecto-cervical tissue explants (LC-MS/MS); conditions: for AUC3h-15d / Cmax: Human ecto-cervical explants, 3 h exposure
[6] = Comb. gel, High [ ]: TFV 70 µM + MVC 3.8 µM
[7] = Comb. gel, Low [ ]: TFV 7 µM + MVC 0.38 µM
[8] = Single gel, High [ ]: TFV 70 µM or MVC 3.8 µM
[9] = Single gel, Low [ ]: TFV 7 µM or MVC 0.38 µM

Substance: Maraviroc [MVC]
- AUC3h-15d [1, 6]: 3.84 ng·days/mg
- Cmax [1, 6]: 1.86 ng/mg
- AUC3h-15d [1, 7]: 0.62 ng·days/mg
- Cmax [1, 7]: 0.29 ng/mg
- AUC3h-15d [1, 8]: 6.96 ng·days/mg
- Cmax [1, 8]: 3.15 ng/mg
- AUC3h-15d [1, 9]: 1.38 ng·days/mg
- Cmax [1, 9]: 0.22 ng/mg
- AUC3h-15d fold increase, high versus low concentration gels ([1]; human colorectal tissue): 5.4 fold
- AUC3h–15d [2, 6]: 54.31 ng·days/mg
- Cmax [2, 6]: 35.40 ng/mg
- AUC3h–15d [2, 7]: 4.72 ng·days/mg
- Cmax [2, 7]: 2.79 ng/mg
- AUC3h–15d [2, 8]: 37.51 ng·days/mg
- Cmax [2, 8]: 24.34 ng/mg
- AUC3h–15d [2, 9]: 1.78 ng·days/mg
- Cmax [2, 9]: 0.95 ng/mg
- AUC3h–15d [3, 6]: 9.03 ng·days/mg
- Cmax [3, 6]: 1.19 ng/mg
- AUC3h–15d [3, 7]: 4.93 ng·days/mg
- Cmax [3, 7]: 0.64 ng/mg
- AUC3h–15d [3, 8]: 7.17 ng·days/mg
- Cmax [3, 8]: 0.94 ng/mg
- AUC3h–15d [3, 9]: 0.95 ng·days/mg
- Cmax [3, 9]: 0.122 ng/mg
- AUC3h–15d [4, 6]: 7.22 ng·days/mg
- Cmax [4, 6]: 0.95 ng/mg
- AUC3h–15d [4, 7]: 3.22 ng·days/mg
- Cmax [4, 7]: 0.43 ng/mg
- AUC3h–15d [4, 8]: 10.88 ng·days/mg
- Cmax [4, 8]: 1.44 ng/mg
- AUC3h–15d [4, 9]: 1.44 ng·days/mg
- Cmax [4, 9]: 0.19 ng/mg
- AUC3h-15d fold increase, high versus low concentration gels ([4]; macaque vaginal explants): 3.8 fold
- AUC3h-15d [5, 6]: 5.55 ng·days/mg
- Cmax [5, 6]: 2.66 ng/mg
- AUC3h-15d [5, 7]: 1.22 ng·days/mg
- Cmax [5, 7]: 0.59 ng/mg
- AUC3h-15d [5, 8]: 4.95 ng·days/mg
- Cmax [5, 8]: 2.61 ng/mg
- AUC3h-15d [5, 9]: 1.23 ng·days/mg
- Cmax [5, 9]: 0.56 ng/mg
- AUC3h-15d fold increase, high versus low concentration gels ([5]; human ecto-cervical explants): 4.3 fold
- Cmax fold increase ([5]; human ecto-cervical explants versus macaque tissue): 2.2 fold

Source: PMC9157191, “The ex vivo pharmacology of HIV-1 antiretrovirals differs between macaques and humans” (iScience, 2022)
